Test results as given in doi:10.1101/2025.11.10.687524 (bioRxiv, 2025).

Biological target: T1, SurA(I297C)-His10 (disulfide-crosslinked SurA–BAM complex 2) (E. coli, UniProt P0ABZ6 21-428, I297C)
T1 sequence (looked up): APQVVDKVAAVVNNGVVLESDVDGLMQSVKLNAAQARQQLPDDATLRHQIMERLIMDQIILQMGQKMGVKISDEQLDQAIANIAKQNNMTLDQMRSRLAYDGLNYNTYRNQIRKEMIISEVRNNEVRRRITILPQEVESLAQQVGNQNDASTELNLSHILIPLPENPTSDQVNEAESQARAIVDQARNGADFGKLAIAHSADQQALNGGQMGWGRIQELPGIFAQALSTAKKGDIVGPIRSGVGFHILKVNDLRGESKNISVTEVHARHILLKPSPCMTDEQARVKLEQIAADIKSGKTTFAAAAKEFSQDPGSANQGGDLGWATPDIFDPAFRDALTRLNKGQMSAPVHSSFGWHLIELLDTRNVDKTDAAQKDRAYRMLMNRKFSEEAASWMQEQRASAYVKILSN
Assay: cryo-EM structure

B1: BamE(Y57C) (untagged, disulfide-crosslinked SurA–BAM complex 2) (natural protein)
chain: not shown
B1: binds.
